{"source": "paper PMC1260013", "about": "(BMC Biochemistry, 2005)", "key": {"[1]": {"tested_on": "NC(=O)c1ccc[n+]([C@@H]2O[C@H](COP(=O)(O)OP(=O)(O)OC[C@H]3O[C@@H](n4cnc5c(N)ncnc54)[C@H](OP(=O)(O)O)[C@@H]3O)[C@@H](O)[C@H]2O)c1", "test": "purified protein", "settings": "pH 7.5; 25.0 °C; varied: cofactor"}, "[2]": {"tested_on": "O=C(O)CC(C(=O)O)C(O)C(=O)O", "test": "purified protein", "settings": "pH 7.5; 25.0 °C"}}}
{"substance": "M. tb ICD-2 (Mycobacterium tuberculosis H37Rv)", "values": [{"measurement": "Km", "setting": "[1]", "result": "19.6 ± 6", "unit": "µM"}, {"measurement": "Vmax", "setting": "[1]", "result": 374, "unit": "μM NADPH/min"}, {"measurement": "Km", "setting": "[2]", "result": "20 ± 1", "unit": "µM"}, {"measurement": "Vmax", "setting": "[2]", "result": 371.3, "unit": "μM NADPH/min"}]}
